This series concerns ZIKV^Br. Description: Virus yield reduction assay, ZIKV^Br on Huh-7 cells. Type of series: cell-based, Zika virus.
Setting [1] is: Table S2, this paper data, ZIKV, Huh-7 cells, Na = no detected antiviral activity, ratio CC50 / EC50.
Where [2] appears, read: CC50/EC50, ZIKV^Br on Huh-7 cells.

SMILES strings stand for the structures.

On to `O=c1nc(NO)ccn1[C@@H]1O[C@H](CO)[C@@H](O)[C@H]1O` [EIDD-1931, β‐D‐N4‐hydroxycytidine, reference compound], for which, under setting [1], the SI is reported as 87.

As to `CC(C)c1nc2cc3cccnc3c(Cl)c2[nH]c1=O` [PS462], the SI under setting [2] is listed as less than 2.9 and the SI under setting [1] is on record as 3.

As for `O=c1[nH]c2cc3cccnc3c(Cl)c2nc1-c1cccs1` [PS1097, 5‐chloro‐3‐(thiophen‐2‐yl) pyrido[2,3‐g] quinoxalin‐2(1H)‐one], the SI reads like this: under setting [2], 331.7; under setting [1], 331.7.

As to `Cn1c(=O)c(-c2cccs2)nc2c(Cl)c3ncccc3cc21` [PS1240], the SI worked out at 142.3 under setting [2] and 142.3 under setting [1].

As to `CC(C)OC(=O)[C@H](C)N[P@](=O)(OC[C@H]1O[C@@H](n2ccc(=O)[nH]c2=O)[C@](C)(F)[C@@H]1O)Oc1ccccc1` [SOF, Sofosbuvir, reference compound], the SI reads like this: under setting [2], 184; under setting [1], 184.

The values are drawn from paper PMC12445440 (Journal of Medical Virology, 2025).
